Measured values published in patent US6906205B2, “Spiro and dispiro 1,2,4-trioxolane antimalarials” (Medicines for Malaria Venture MMV, priority 2002, dated 2005).

Experiment: chemical properties of OZ277 salts
Details: salt of OZ277

For `CC(C)(N)CNC(=O)CC1CCC2(CC1)OOC1(O2)C2CC3CC(C2)CC1C3.Cc1ccc(S(=O)(=O)O)cc1` (centres unmarked) [Tosylate], which Taste is on record?
The Taste was “Not bitter”.

With `CC(C)(N)CNC(=O)CC1CCC2(CC1)OOC1(O2)C2CC3CC(C2)CC1C3.O=C(O)CCC(=O)O` (centres unmarked) [Succinate] as the compound, how does the Taste read?
Its Taste is “Not bitter”.
